A mixed list of measured activities; the numbers were collected in NIAID ChemDB.

All rows: growth or infection tests; organism: Aspergillus niger; read by: broth dilution; measure: MIC

Two numbers with a dash give a range or band. Neighbouring rows are from separate reports. Blank or dashed fields: not listed here.

compound,strain or isolate,value
Brc1ccc(COc2cccc3cccnc23)cc1,-,>100 µg/mL
COc1cccc(N=C(C)c2cc(C(C)=Nc3cccc(OC)c3)c(O)cc2O)c1,MTCC 282,250 µg/mL
Cc1ccc(N2NOC(=O)C2S(=O)(=O)Nc2ccc(-n3c(-c4cccc([N+](=O)[O-])c4)nc4ccccc4c3=O)cc2)cc1,MTCC 282,500 µg/mL
COc1ccc([Se][Se]c2ccc(OC)cc2)cc1,-,>64 µg/mL
FC(F)(F)Oc1ccc(COc2cccc3cccnc23)cc1,-,>100 µg/mL
Cc1ccc(N2NOC(=O)C2S(=O)(=O)Nc2nc(-c3c(Cl)cccc3Cl)cs2)cc1,MTCC 282,250 µg/mL
Cc1cccc(COc2cccc3cccnc23)c1,-,12.5 µg/mL
O=C/C=C/c1ccccc1,IOA-3,160 µg/mL
CC1=C(Cl)C(O)=CC(=O)C12Oc1cc(O)c(Cl)c(C)c1C2=O,MTCC 282,100 µg/mL
OC(Cn1cncn1)(Cn1cncn1)c1ccc(F)cc1F,MTCC 1344,100 µg/mL
FC(F)(F)c1cccc([Se][Se]c2cccc(C(F)(F)F)c2)c1,-,>64 µg/mL
COc1cccc(COc2cccc3cccnc23)c1,-,12.5 µg/mL
Cc1ccc(N2NOC(=O)C2S(=O)(=O)Nc2nc3ccc(F)cc3s2)cc1,MTCC 282,500 µg/mL
C[C@H]1[C@H](O)[C@@H](C)/C=C/C=C/C=C/C=C/C=C/C=C/C=C/[C@H](O[C@@H]2O[C@H](C)[C@@H](O)[C@H](N)[C@@H]2O)C[C@@H]2O[C@](O)(C[C@@H](O)C[C@@H](O)CC[C@H](O)[C@@H](O)C[C@@H](O)CC(=O)O[C@H]1C)C[C@H](O)[C@H]2C(=O)O,A420,2–4 µg/mL
Cc1ccc(N2NOC(=O)C2S(=O)(=O)Nc2ccc(-n3c(-c4c(Cl)cccc4[N+](=O)[O-])nc4ccccc4c3=O)cc2)cc1,MTCC 282,1000 µg/mL
c1ccc(-c2cccc(COc3cccc4cccnc34)c2)cc1,-,>100 µg/mL
CC(=O)N1CCN(c2ccc(OC[C@H]3CO[C@](Cn4ccnc4)(c4ccc(Cl)cc4Cl)O3)cc2)CC1,ATCC 6275,>150 µg/mL
Cc1ccc(N2NOC(=O)C2S(=O)(=O)Nc2nc(-c3ccc([N+](=O)[O-])cc3)cs2)cc1,MTCC 282,250 µg/mL
C=CCc1ccc(O)c(OC)c1,IOA-3,160 µg/mL
CCOC(=O)CC#N,-,16000 µM
C[C@H]1[C@H](O)[C@@H](C)/C=C/C=C/C=C/C=C/C=C/C=C/C=C/[C@H](O[C@@H]2O[C@H](C)[C@@H](O)[C@H](N)[C@@H]2O)C[C@@H]2O[C@](O)(C[C@@H](O)C[C@@H](O)CC[C@H](O)[C@@H](O)C[C@@H](O)CC(=O)O[C@H]1C)C[C@H](O)[C@H]2C(=O)O,VPC 156/96,1.95 µg/mL

A second listing of 3 rows from above:

{"compound": "C=CCc1ccc(O)c(OC)c1", "strain or isolate": "IOA-3", "value": "160 µg/mL"}
{"compound": "Cc1ccc(N2NOC(=O)C2S(=O)(=O)Nc2ccc(-n3c(-c4cccc([N+](=O)[O-])c4)nc4ccccc4c3=O)cc2)cc1", "strain or isolate": "MTCC 282", "value": "500 µg/mL"}
{"compound": "FC(F)(F)Oc1ccc(COc2cccc3cccnc23)cc1", "value": ">100 µg/mL"}